Reference: US8420311B2, “Method to block the infection by flaviviruses, molecules and uses” (Centro de Ingenieria Genetica y Biotecnologia, priority 2006, dated 2013)

System: DV
Experiment: Inhibition of the infection of Vero cells with DV by pre-incubation of the virus with A2M
Type: cell-based, dengue virus
Conditions: increasing concentrations, 1 h at 25° C. (FIG. 20A)
Description: FIG. 20. Inhibition of the infection of Vero cells with DV by pre-incubation with A2M. Viral preparations were incubated 1 h at 25° C. (A and C) or the indicated time (B) with the proteins i. e. activated A2M (A2Mact), non-activated A2M (A2M no act) and a non-related protein (NR). The mixtures of the proteins with the virus were added to monolayers of Vero cells and incubated for 1 h at 37° C. The cell monolayers were washed to eliminate non-bound virus. Next, medium MEM supplemented with non-essential amino acids and 1% FBS, 1% CMC was added and the cells were incubated for 5 days at 37° C. in a CO2 incubator. To visualize the viral plaques, Vero cells were stained using Naphtol Blue Black. All experimental points were performed on duplicates.
To obtain further evidences of the interaction of DV with A2M, the two variants of the protein i.e. activated and non-activated were used in assays of inhibition of infection of Vero cells. The viral preparation was incubated with solutions of activated A2M of higher concentrations than the physiological concentrations reached by this variant of the protein. Solutions of equimolar concentration of non-activated A2M and a non-related protein were used as negative controls. […]

B1: activated A2M: purified human A2M activated by incubation with methylamine (protein)
chain: SVSGKPQYMVLVPSLLHTETTEKGCVLLSYLNETVTVSASLESVRGNRSLFTDLEAENDVLHCVAFAVPKSSSNEEVMFLTVQVKGPTQEFKKRTTVMVKNEDSLVFVQTDKSIYKPGQTVKFRVVSMDENFHPLNELIPLVYIQDPKGNRIAQWQSFQLEGGLKQFSFPLSSEPFQGSYKVVVQKKSGGRTEHPFTVEEFVLPKFEVQVTVPKIITILEEEMNVSVCGLYTYGKPVPGHVTVSICRKYSDASDCHGEDSQAFCEKFSGQLNSHGCFYQQVKTKVFQLKRKEYEMKLHTEAQIQEEGTVVELTGRQSSEITRTITKLSFVKVDSHFRQGIPFFGQVRLVDGKGVPIPNKVIFIRGNEANYYSNATTDEHGLVQFSINTTNVMGTSLTVRVNYKDRSPCYGYQWVSEEHEEAHHTAYLVFSPSKSFVHLEPMSHELPCGHTQTVQAHYILNGGTLLGLKKLSFYYLIMAKGGIVRTGTHGLLVKQEDMKGHFSISIPVKSDIAPVARLLIYAVLPTGDVIGDSAKYDVENCLANKVDLSFSPSQSLPASHAHLRVTAAPQSVCALRAVDQSVLLMKPDAELSASSVYNLLPEKDLTGFPGPLNDQDDEDCINRHNVYINGITYTPVSSTNEKDMYSFLEDMGLKAFTNSKIRKPKMCPQLQQYEMHGPEGLRVGFYESDVMGRGHARLVHVEEPHTETVRKYFPETWIWDLVVVNSAGVAEVGVTVPDTITEWKAGAFCLSEDAGLGISSTASLRAFQPFFVELTMPYSVIRGEAFTLKATVLNYLPKCIRVSVQLEASPAFLAVPVEKEQAPHCICANGRQTVSWAVTPKSLGNVNFTVSAEALESQELCGTEVPSVPEHGRKDTVIKPLLVEPEGLEKETTFNSLLCPSGGEVSEELSLKLPPNVVEESARASVSVLGDILGSAMQNTQNLLQMPYGCGEQNMVLFAPNIYVLDYLNETQQLTPEVKSKAIGYLNTGYQRQLNYKHYDGSYSTFGERYGRNQGNTWLTAFVLKTFAQARAYIFIDEAHITQALIWLSQRQKDNGCFRSSGSLLNNAIKGGVEDEVTLSAYITIALLEIPLTVTHPVVRNALFCLESAWKTAQEGDHGSHVYTKALLAYAFALAGNQDKRKEVLKSLNEEAVKKDNSVHWERPQKPKAPVGHFYEPQAPSAEVEMTSYVLLAYLTAQPAPTSEDLTSATNIVKWITKQQNAQGGFSSTQDTVVALHALSKYGAATFTRTGKAAQVTIQSSGTFSSKFQVDNNNRLLLQQVSLPELPGEYSMKVTGEGCVYLQTSLKYNILPEKEEFPFALGVQTLPQTCDEPKAHTSFQISLSVSYTGSRSASNMAIVDVKMVSGFIPLKPTVKMLERSNHVSRTEVSSNHVLIYLDKVSNQTLSLFFTVLQDVPVRDLKPAIVKVYDYYETDEFAIAEYNAPCSKDLGNA
Which “effect of pre-incubation of the virus on viral infection” value does the source give for B1 here?
The value was “blocks viral infection in a dose-dependent manner”.
